Source: patent US20240317834A1, “COMPOSITIONS AND METHODS FOR NEUROLOGICAL DISEASES” (CODA BIOTHERAPEUTICS, published 2024)

Assays:
[1] = target: T1, CODA283 (Y115E_N379K in SEQ ID NO: 33) (human (chimera of human α7-nAChR and …))
T1 chain: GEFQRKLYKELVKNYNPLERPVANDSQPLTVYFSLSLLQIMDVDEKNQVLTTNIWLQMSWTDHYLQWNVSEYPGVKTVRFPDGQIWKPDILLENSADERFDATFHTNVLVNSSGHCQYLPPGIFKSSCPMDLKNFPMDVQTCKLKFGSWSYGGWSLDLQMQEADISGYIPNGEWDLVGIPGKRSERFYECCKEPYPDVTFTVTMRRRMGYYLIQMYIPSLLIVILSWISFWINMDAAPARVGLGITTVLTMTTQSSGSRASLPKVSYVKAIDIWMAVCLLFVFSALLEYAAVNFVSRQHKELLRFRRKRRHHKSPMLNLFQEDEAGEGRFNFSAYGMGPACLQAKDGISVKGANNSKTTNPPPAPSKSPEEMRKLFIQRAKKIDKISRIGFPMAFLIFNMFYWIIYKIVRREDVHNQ

[2] = target: T2, CODA807 (Y115D, L131E in SEQ ID NO: 33) (human (chimera of human α7-nAChR and …))
T2 chain: T1 chain with E93D, L109E, K357N

[3] = target: T3, CODA952 (Y140I in SEQ ID NO: 33) (human (chimera of human α7-nAChR and …))
T3 chain: T1 chain with E93Y, Y118I, K357N

[4] = target: T4, CODA1047 (R101F, Y210V in SEQ ID NO: 33) (human (chimera of human α7-nAChR and …))
T4 chain: T1 chain with R79F, E93Y, Y188V, K357N

[5] = target: T5, CODA805 (Y115D, S170T in SEQ ID NO: 33) (human (chimera of human α7-nAChR and …))
T5 chain: T1 chain with E93D, S148T, K357N

[6] = target: T6, CODA335 (L131T in SEQ ID NO: 33) (human (chimera of human α7-nAChR and …))
T6 chain: T1 chain with E93Y, L109T, K357N

B1: α-bungarotoxin conjugated to Alexa Fluor 647 (ligand)
chain: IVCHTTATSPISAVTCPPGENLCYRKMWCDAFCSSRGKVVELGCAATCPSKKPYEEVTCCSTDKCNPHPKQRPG
For B1, the “Normalized AB %” value [1] was 1.24 ratio to SEQ ID NO: 33 control, the “Normalized AB %” value [2] was 0.78 ratio to SEQ ID NO: 33 control and the “Normalized AB %” value [3] was 0.54 ratio to SEQ ID NO: 33 control. For the same binder, the “Normalized AB MFI” value [3] was 2.64 ratio to SEQ ID NO: 33 control, the “Normalized AB %” value [4] was 0.03 ratio to SEQ ID NO: 33 control and the “Normalized AB MFI” value [4] was 0.38 ratio to SEQ ID NO: 33 control. The “Normalized AB %” value [5] was 0.56 ratio to SEQ ID NO: 33 control and the “Normalized AB %” value [6] was 1.65 ratio to SEQ ID NO: 33 control.

Changes are numbered by the printed parent chain.
